Compound potency records, mixed from different reports. Data source: NIAID ChemDB in PubChem.

All rows: growth or infection tests; agent: Mycobacterium avium complex; read-out: MIC

Conditions beyond the fields shown may differ between rows. An empty or dashed field is not shown. a–b is a range or a potency band.

smiles | strain or isolate | read by | result
COc1ccc(OC)c(NCc2cnc3nc(N)nc(N)c3c2C)c1 | NJ-168 serovar 4/6 | - | ≤0.128 µg/mL
CO[C@H]1/C=C/O[C@@]2(C)Oc3c(C)c(O)c4c(O)c(c(/C=N/N5CCN(C6CCCC6)CC5)c(O)c4c3C2=O)NC(=O)/C(C)=C\C=C\[C@H](C)[C@H](O)[C@@H](C)[C@@H](O)[C@@H](C)[C@H](OC(C)=O)[C@@H]1C | SK095 | - | 0.25 µg/mL
O[C@@H](c1cc(C(F)(F)F)nc2c(C(F)(F)F)cccc12)[C@H]1CCCCN1 | 5 clinical isolates | - | 8–16 µg/mL
Cc1ccc(C)c(Sc2ncnc3nc[nH]c23)c1 | NJ211 | - | >12.8 µg/mL
CCCCCCCCO/N=C1\[C@H](C)CC(C)(O)[C@H](O[C@@H]2O[C@H](C)C[C@H](N(C)C)[C@H]2O)[C@@H](C)[C@H](OC2C[C@@](C)(OC)[C@@H](O)[C@H](C)O2)[C@@H](C)C(=O)O[C@H](CC)[C@@](C)(O)[C@H](O)[C@H]1C | 20096 | - | 6.25 µg/mL
Cc1c(CN2CCSCC2)cc(-c2ccccc2)n1-c1ccccc1 | 103317 | - | >16 µg/mL
CC[C@H]1OC(=O)[C@H](C)[C@@H](O[C@H]2C[C@@](C)(OC)[C@@H](OC(C)=O)[C@H](C)O2)[C@H](C)[C@@H](O[C@@H]2O[C@H](C)C[C@H](N(C)C)[C@H]2O)C(C)(O)C[C@@H](C)/C(=N\OCCCC2CCCCC2)[C@H](C)[C@@H](O)[C@]1(C)O | 20039 | - | 3.13 µg/mL
O=C(NCCCl)N1CCC(CN=c2cc3n(-c4ccc(Cl)cc4)c4ccccc4nc-3cc2Nc2ccc(Cl)cc2)CC1 | 101 | - | 8 µg/mL
CC[C@H]1OC(=O)[C@H](C)[C@@H](O[C@H]2C[C@@](C)(OC)[C@@H](O)[C@H](C)O2)[C@H](C)[C@@H](O[C@@H]2O[C@H](C)C[C@H](N(C)C)[C@H]2O)[C@](C)(OC)C[C@@H](C)C(=O)[C@H](C)[C@@H](O)[C@]1(C)O | N-444 | - | 8 µg/mL
CCCO/N=C1\[C@H](C)CC(C)(O)[C@H](O[C@@H]2O[C@H](C)C[C@H](N(C)C)[C@H]2O)[C@@H](C)[C@H](OC2C[C@@](C)(OC)[C@@H](O)[C@H](C)O2)[C@@H](C)C(=O)O[C@H](CC)[C@@](C)(O)[C@H](O)[C@H]1C | 20092 | - | >50 µg/mL
CCNC(=O)OCCn1sc2ccccc2c1=O | ISS 486 | - | >32 µg/mL
Cc1ccn2c(C(=O)NCc3ccc4c(c3)CCO4)c(C)nc2c1 | Clinical isolate KAL | MTT | 4 µg/mL
CC[C@@]1(O)OC(=O)[C@H](C)[C@@H](O[C@H]2C[C@@](C)(OC)[C@@H](O)[C@H](C)O2)[C@H](C)[C@@H](O[C@@H]2O[C@H](C)C[C@H](N(C)C)[C@H]2O)[C@](C)(OC)C[C@@H](C)C(=O)[C@H](C)[C@@H](O)[C@]1(C)O | MO-1 | - | 8 µg/mL
CC[C@H]1OC(=O)[C@H](C)[C@@H](OC2C[C@@](C)(OC)[C@@H](O)[C@H](C)O2)[C@H](C)[C@@H](O[C@@H]2O[C@H](C)C[C@H](N(C)C)[C@H]2O)C(C)(O)C[C@@H](C)/C(=N\OCCCCCc2ccccc2)[C@H](C)[C@@H](O)[C@]1(C)O | 20039 | - | 3.13 µg/mL
CCCNC(=O)OCCN=c1ssc2ccccc12 | AN2 | - | 16 µg/mL
CC[C@H]1OC(=O)[C@H](C)[C@@H](O[C@H]2C[C@@](C)(OC)[C@@H](O)[C@H](C)O2)[C@H](C)[C@@H](O[C@@H]2O[C@H](C)C[C@H](N(C)C)[C@H]2O)[C@](C)(OC)C[C@@H](C)C(=O)[C@H](C)[C@@H](O)[C@]1(C)O | MO-1 | - | 8 µg/mL
CC(C)(C)NC(=O)OCCN=c1ssc2ccccc12 | AN1 | - | 2 µg/mL
CCCCN(CCCC)C[C@H](O)c1cc2c(Cl)cc(Cl)cc2c2cc(C(F)(F)F)ccc12 | 5 clinical isolates | - | 4–8 µg/mL
CCCOc1ccc(OCC)cc1NCc1cnc2nc(N)nc(N)c2c1C | NJ168 | - | 8 µg/mL
CC[C@H]1OC(=O)[C@H](C)[C@@H](OC2C[C@@](C)(OC)[C@@H](O)[C@H](C)O2)[C@H](C)[C@@H](O[C@@H]2O[C@H](C)C[C@H](N(C)C)[C@H]2O)C(C)(O)C[C@@H](C)/C(=N\OCCCc2ccccc2)[C@H](C)[C@@H](O)[C@]1(C)O | 20092 | - | 12.5 µg/mL
COc1ccc(OC)c(Sc2nc(Cl)nc3nc[nH]c23)c1.O | NJ211 | - | >12.8 µg/mL
CC[C@H]1OC(=O)[C@H](C)[C@@H](OC2C[C@@](C)(OC)[C@@H](O)[C@H](C)O2)[C@H](C)[C@@H](O[C@@H]2O[C@H](C)C[C@H](N(C)C)[C@H]2O)C(C)(O)C[C@@H](C)/C(=N\OCCc2ccccc2)[C@H](C)[C@@H](O)[C@]1(C)O | 20039 | - | 1.56 µg/mL
CCCCNC(=O)OCCn1sc2ccccc2c1=S | ATCC 15769 | - | 4 µg/mL
CC[C@H]1OC(=O)[C@H](C)[C@@H](O[C@H]2C[C@@](C)(OC)[C@@H](O)[C@H](C)O2)[C@H](C)[C@@H](O[C@@H]2O[C@H](C)C[C@H](N(C)C)[C@H]2O)[C@](C)(OC)C[C@@H](C)C(=O)[C@H](C)[C@@H](O)[C@]1(C)O | LV-2 | - | 2 µg/mL
CCCCCCCCCCCCO/N=C1\[C@H](C)CC(C)(O)[C@H](O[C@@H]2O[C@H](C)C[C@H](N(C)C)[C@H]2O)[C@@H](C)[C@H](OC2C[C@@](C)(OC)[C@@H](O)[C@H](C)O2)[C@@H](C)C(=O)O[C@H](CC)[C@@](C)(O)[C@H](O)[C@H]1C | 20092 | - | 25 µg/mL
CC[C@H]1OC(=O)[C@H](C)[C@@H](O[C@H]2C[C@@](C)(OC)[C@@H](O)[C@H](C)O2)[C@H](C)[C@@H](O[C@@H]2O[C@H](C)C[C@H](N(C)C)[C@H]2O)[C@](C)(O)C[C@@H](C)/C(=N\OCOCCOC)[C@H](C)[C@@H](O)[C@]1(C)O | N-92159 | - | 2 µg/mL
Cc1cccc(CSc2ncccn2)c1 | NJ211 | - | >12.8 µg/mL
Cc1ccc2nc(C)c(C(=O)NCc3ccc(C(F)(F)F)cc3)n2c1 | Clinical isolate 9141 | MTT | <0.03 µg/mL
CC[C@H]1OC(=O)[C@H](C)[C@@H](OC2C[C@@](C)(OC)[C@@H](O)[C@H](C)O2)[C@H](C)[C@@H](O[C@@H]2O[C@H](C)C[C@H](N(C)C)[C@H]2O)C(C)(O)C[C@@H](C)/C(=N\OCCOc2ccccc2)[C@H](C)[C@@H](O)[C@]1(C)O | 20039 | - | 1.56 µg/mL
Cc1c(CN2CCSCC2)cc(-c2ccccc2)n1-c1ccc(F)cc1 | 103317 | - | 2 µg/mL
CCCCCCCN(CCCCCCC)C[C@@H](O)c1cc2ccccc2c2cc(Br)ccc12 | 5 clinical isolates | - | >32 µg/mL
CCNC(=O)OCCn1sc2ccccc2c1=S | ISS 486 | - | 4 µg/mL
Cc1c(CN2CCSCC2)cc(-c2ccccc2F)n1-c1ccccc1F | 103317 | - | >16 µg/mL
CC(C)N=c1cc2n(-c3ccc(Cl)cc3)c3ccccc3nc-2cc1Nc1ccc(Cl)cc1 | 453 | - | 0.25 µg/mL
CO[C@H]1/C=C/O[C@@]2(C)Oc3c(C)c(O)c4c(O)c(c5c(c4c3C2=O)NC2(CCN(CC(C)C)CC2)N=5)=NC(=O)/C(C)=C\C=C\[C@H](C)[C@H](O)[C@@H](C)[C@@H](O)[C@@H](C)[C@H](OC(C)=O)[C@@H]1C | F-2 | - | 0.5 µg/mL
CC(C)NC(=O)OCCN=c1ssc2ccccc12 | ISS 486 | - | 4 µg/mL
COc1ccccc1CSc1ncnc2nc[nH]c12 | NJ211 | - | >12.8 µg/mL
CC(C)N=C(N)/N=C(\N)NOCCCOc1cc(Cl)c(Cl)cc1Cl | 3030 | - | 32 µg/mL
CC[C@H]1OC(=O)[C@H](C)[C@@H](OC2C[C@@](C)(OC)[C@@H](O)[C@H](C)O2)[C@H](C)[C@@H](O[C@@H]2O[C@H](C)C[C@H](N(C)C)[C@H]2O)C(C)(O)C[C@@H](C)/C(=N\OCCCOc2ccccc2)[C@H](C)[C@@H](O)[C@]1(C)O | 20096 | - | 3.13 µg/mL
CC(C)(C)NC(=O)OCCn1sc2ccccc2c1=O | AN1 | - | >32 µg/mL
COc1cccc2c1nc1cccc(OC)c1[n+]2[O-] | 100 | - | 16 µg/mL
COc1ccc(C(F)(F)F)cc1NCc1cnc2nc(N)nc(N)c2c1C | NJ-168 serovar 4 | - | ≤0.128 µg/mL
CC[C@H]1OC(=O)[C@H](C)[C@@H](O[C@H]2C[C@@](C)(OC)[C@@H](O)[C@H](C)O2)[C@H](C)[C@@H](O[C@@H]2O[C@H](C)C[C@H](N(C)C)[C@H]2O)[C@](C)(O)C[C@@H](C)CN(C)[C@H](C)[C@@H](O)[C@]1(C)O | ATCC49601 | - | 8 µg/mL
CCCCNC(=O)OCCn1sc2ccccc2c1=O | AN1 | - | 16 µg/mL
CC(C)NC(=O)N1CCC(CN=c2cc3n(-c4ccc(Cl)cc4)c4ccccc4nc-3cc2Nc2ccc(Cl)cc2)CC1 | 100 | - | ≥16 µg/mL
CC[C@H]1OC(=O)[C@H](C)[C@@H](O[C@H]2C[C@@](C)(OC)[C@@H](O)[C@H](C)O2)[C@H](C)[C@@H](O[C@@H]2O[C@H](C)C[C@H](N(C)C)[C@H]2O)[C@](C)(OC)C[C@@H](C)C(=O)[C@H](C)[C@@H](O)[C@]1(C)O | N-444 | - | 2 µg/mL
COc1ccc(C)c(NCc2cnc3nc(N)nc(N)c3c2C)c1 | NJ-168 serovar 4/6 | - | ≤0.128 µg/mL
CC1CN(c2cc3c(cc2F)c(=O)c(C(=O)O)cn3-c2ccc(F)cc2F)CCN1 | LV-2 | - | 16 µg/mL
CCNC(=O)OCCN=c1ssc2ccccc12 | ATCC 15769 | - | 4 µg/mL
O[C@H](c1cc(C(F)(F)F)nc2c(C(F)(F)F)cccc12)[C@H]1CCCCN1 | 5 clinical isolates | - | >16 µg/mL
CCN=c1cc2n(-c3ccc(Cl)cc3)c3ccccc3nc-2cc1Nc1ccc(Cl)cc1 | 715 | - | 0.25 µg/mL

Again, the opening 3 rows:

smiles	strain or isolate	read by	result
COc1ccc(OC)c(NCc2cnc3nc(N)nc(N)c3c2C)c1	NJ-168 serovar 4/6	-	≤0.128 µg/mL
CO[C@H]1/C=C/O[C@@]2(C)Oc3c(C)c(O)c4c(O)c(c(/C=N/N5CCN(C6CCCC6)CC5)c(O)c4c3C2=O)NC(=O)/C(C)=C\C=C\[C@H](C)[C@H](O)[C@@H](C)[C@@H](O)[C@@H](C)[C@H](OC(C)=O)[C@@H]1C	SK095	-	0.25 µg/mL
O[C@@H](c1cc(C(F)(F)F)nc2c(C(F)(F)F)cccc12)[C@H]1CCCCN1	5 clinical isolates	-	8–16 µg/mL